Sequence variants of PSTVd loop 6 after infection

Source: Wu et al. 2024 (doi:10.1371/journal.ppat.1012142), supplementary data.

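A pool of all variants was put on leaves of three Nicotiana benthamiana plants. Progeny were sequenced from the inoculated region (day 5), the margin of the inoculated leaf (day 10) and systemic leaves (day 12).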

Region: loop 6 of PSTVd (intermediate strain), upper and lower strand joined, each 5' to 3', the first 5 letters being the upper strand, closing pairs included. Wild type: UGACCGCGAG. Varied positions (N): UNNNCGNNNG.

Values are reads per thousand in the sample; higher means more abundant, 0 means not found.
Each value is the mean of three plants.
"Pool" is the share in the plasmid pool used as inoculum, on the same scale.
The inoculated region was read from the minus strand, the other sites from the plus strand.
For reference, wild type rose from 20.7 per thousand in the pool to 195, 198, 203 (inoculated region), 629, 591, 734 (leaf margin) and 942, 870, 868 (systemic leaves).
Sequences that differ at fixed positions probably stem from PCR or sequencing errors, and defective variants can be carried along by functional ones.
Samples held 36,220 to 57,551 reads, so the smallest values rest on one or two reads.

UCUACGGCCG (pool 0.209): inoculated region 0.0884; leaf margin 0.0261; systemic leaves 0.
UGAGCGUCUG (pool 0.248): inoculated region 0.0901; leaf margin 0.00773; systemic leaves 0.00684.
UAUACGGACG (pool 0.275): inoculated region 0.726; leaf margin 0.0798; systemic leaves 0.0475.
UUGCCGACCG (pool 0.235): inoculated region 0.131; leaf margin 0; systemic leaves 0.
UCAUCGGGAG (pool 0.209): inoculated region 0.643; leaf margin 0.158; systemic leaves 0.
UAGUCGACAG (pool 0.222): inoculated region 0.0779; leaf margin 0.00920; systemic leaves 0.
UGAACGCGAU (pool 0.0261): inoculated region 0.666; leaf margin 0.0698; systemic leaves 0.0263.
UGAUCGCAAG (pool 0.170): inoculated region 0.710; leaf margin 0.0639; systemic leaves 0.
UGUGCGGGCG (pool 0.196): inoculated region 0.0658; leaf margin 0; systemic leaves 0.
GGACCGGAGG (pool 0.0131): inoculated region 0.0237; leaf margin 0; systemic leaves 0.
UGCGCGGACG (pool 0.261): inoculated region 0.0891; leaf margin 0; systemic leaves 0.
UGGUCGUACG (pool 0.275): inoculated region 0.0837; leaf margin 0; systemic leaves 0.
UGUCCGUUUG (pool 0.431): inoculated region 0.107; leaf margin 0.00773; systemic leaves 0.
UAAGCGGUGG (pool 0.327): inoculated region 0.0823; leaf margin 0; systemic leaves 0.
UCAGCACAGG (pool 0.0131): inoculated region 0; leaf margin 0; systemic leaves 0.
UCAUCGGUGG (pool 0.183): inoculated region 0.0654; leaf margin 0; systemic leaves 0.
UUUGCGGGCG (pool 0.131): inoculated region 0.0715; leaf margin 0; systemic leaves 0.
UUUCCGGUCG (pool 0.366): inoculated region 0.113; leaf margin 0.00773; systemic leaves 0.
UCUUCGGCAG (pool 0.366): inoculated region 0.131; leaf margin 0; systemic leaves 0.
UGACGGACGG (pool 0.0131): inoculated region 0; leaf margin 0; systemic leaves 0.
UAAUCGGACG (pool 0.183): inoculated region 0.652; leaf margin 0.0691; systemic leaves 0.0457.
UUAGCGUCUG (pool 0.288): inoculated region 0.0706; leaf margin 0; systemic leaves 0.
GGACCGAUAG (pool 0.0131): inoculated region 0.0237; leaf margin 0.0324; systemic leaves 0.
UUUGCGGACG (pool 0.183): inoculated region 0.125; leaf margin 0; systemic leaves 0.
UAAGCGACGG (pool 0.196): inoculated region 0.0662; leaf margin 0.0247; systemic leaves 0.
GGACCGGGGG (pool 0.0131): inoculated region 0.00599; leaf margin 0.00841; systemic leaves 0.
UCUCCGAAGG (pool 0.170): inoculated region 0.124; leaf margin 0.00773; systemic leaves 0.
UUCUCGGCUG (pool 0.275): inoculated region 0.0536; leaf margin 0.0155; systemic leaves 0.
UCGUCGCCAG (pool 0.131): inoculated region 0.0768; leaf margin 0; systemic leaves 0.
UUUACGGUUG (pool 0.209): inoculated region 0.0890; leaf margin 0; systemic leaves 0.
UCUCCGACGG (pool 0.235): inoculated region 0.114; leaf margin 0.00773; systemic leaves 0.
UAACCGCCUG (pool 0.131): inoculated region 0.590; leaf margin 0.0276; systemic leaves 0.
UCUCCGGGUG (pool 0.131): inoculated region 0.0953; leaf margin 0; systemic leaves 0.
UGCGCGCGCG (pool 0.209): inoculated region 0.0944; leaf margin 0; systemic leaves 0.
UAUGCGAGGG (pool 0.261): inoculated region 0.0770; leaf margin 0.0247; systemic leaves 0.
UAUACGUCUG (pool 0.379): inoculated region 0.119; leaf margin 0; systemic leaves 0.
UGCUCGGGAG (pool 0.118): inoculated region 0.137; leaf margin 0; systemic leaves 0.
UCUCCGUCUG (pool 0.288): inoculated region 0.0840; leaf margin 0.00773; systemic leaves 0.
UAUACCGCAG (pool 0.0131): inoculated region 0; leaf margin 0; systemic leaves 0.
UAUCCGAAUG (pool 0.392): inoculated region 0.143; leaf margin 0.00920; systemic leaves 0.

The first 5 entries again:

| sequence | pool | inoculated region | leaf margin | systemic leaves |
|---|---|---|---|---|
| UCUACGGCCG | 0.209 | 0.0884 | 0.0261 | 0 |
| UGAGCGUCUG | 0.248 | 0.0901 | 0.00773 | 0.00684 |
| UAUACGGACG | 0.275 | 0.726 | 0.0798 | 0.0475 |
| UUGCCGACCG | 0.235 | 0.131 | 0 | 0 |
| UCAUCGGGAG | 0.209 | 0.643 | 0.158 | 0 |